Test results from patent publication US20110166072A1, “Methods of treating αvβ3 integrin-associated diseases by administering polypeptides selective for αvβ3 integrin” (NATIONAL CHENG KUNG UNIVERSITY, published 2011).
Substitutions are numbered along the chain they refer to.

Tests used:
[1] = target: platelet glycoprotein αIIbβ3 (on human platelets) (human, UniProt P08514 32-1039; P05106 27-788); assay: cell-based or functional assay
[2] = target: integrin αvβ3 (on rat osteoclast precursors) (rat); assay: cell-based or functional assay

B1: Rhodostomin (ligand)
chain: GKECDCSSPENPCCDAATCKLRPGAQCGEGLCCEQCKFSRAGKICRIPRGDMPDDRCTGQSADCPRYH
[1]
  Platelet aggregation IC50: 83 nM
[2]
  Osteoclastogenesis IC50: 5.52 nM

B2: PGP (rhodostomin variant ^48PRGDGP^53) (ligand)
chain: B1 chain with M52G
[1]
  Platelet aggregation IC50: 283 nM
[2]
  Osteoclastogenesis IC50: 5.76 nM

B3: Rhodostomin variant ^48ARGDDL^53 (ligand)
chain: B1 chain with P48A, M52D, P53L
[1]
  Platelet aggregation IC50: 455 nM
[2]
  Osteoclastogenesis IC50: 8.02 nM

B4: Rhodostomin variant ^48PRGDDL^53 (ligand)
chain: B1 chain with M52D, P53L
[1]
  Platelet aggregation IC50: 396 nM
[2]
  Osteoclastogenesis IC50: 3.15 nM
